A mixed list of measured activities; the numbers were collected in NIAID ChemDB.

All rows: growth or infection tests; agent: Mycobacterium avium intracellulare

A number after MIC or MFC names an inhibition level or a share of isolates.

structure | measure | strain or isolate | value
CO[C@H]1/C=C/O[C@@]2(C)Oc3c(C)c(O)c4c(O)c(c(/C=N/N5CCN(C)CC5)c(O)c4c3C2=O)NC(=O)/C(C)=C\C=C\[C@H](C)[C@H](O)[C@@H](C)[C@@H](O)[C@@H](C)[C@H](OC(C)=O)[C@@H]1C | MIC | CIPT 140310021 | 0.05 µg/mL
Cc1c(F)c(N2CCNC(C)C2)cc2c1c(=O)c(C(=O)O)cn2C1CC1 | MIC50 | 16 isolates | 12.5 µg/mL
N[C@@H]1CN(c2c(F)cc3c(=O)c(C(=O)O)cn([C@@H]4C[C@@H]4F)c3c2Cl)CC12CC2 | MIC50 | 20 strains | 6.25 µg/mL
CC1CN(c2cc3c(cc2F)c(=O)c(C(=O)O)cn3-c2ccc(F)cc2F)CCN1 | MIC | ATCC 13950 | 4 µg/mL
COc1c(N2CCNC(C)C2)c(F)cc2c(=O)c(C(=O)O)cn(C3CC3)c12 | MIC50 | 16 isolates | 12.5 µg/mL
CC1COc2c(N3CCN(C)CC3)c(F)cc3c(=O)c(C(=O)O)cn1c23 | MIC |  | 4 µg/mL
CC[C@H]1OC(=O)[C@H](C)[C@@H](O[C@H]2C[C@@](C)(OC)[C@@H](O)[C@H](C)O2)[C@H](C)[C@@H](O[C@@H]2O[C@H](C)C[C@H](N(C)C)[C@H]2O)[C@](C)(O)C[C@@H](C)C(=O)[C@H](C)[C@@H](O)[C@]1(C)O | MIC | ATCC 13950 | 64 µg/mL
NNC(=O)c1ccncc1 | MIC |  | 8 µg/mL
C[C@H]1COc2c(N3CCN(C)CC3)c(F)cc3c(=O)c(C(=O)O)cn1c23 | MIC50 | 20 strains | 25 µg/mL
CCn1cc(C(=O)O)c(=O)c2cc(F)c(N3CCN(C)CC3)cc21 | MIC |  | 13.6 µg/mL
CC[C@H](C)N1CCN(c2cc(=O)c3nc4c(oc3c2)c2c(=O)c3c(O)c(C)c5c(c34)=C(O)[C@@](C)(O/C=C/[C@H](OC)[C@@H](C)[C@@H](OC(C)=O)[C@H](C)[C@H](O)[C@H](C)[C@@H](O)[C@@H](C)/C=C/C=C(/C)C(=O)N2)O5)CC1 | MIC90 | 31 strains | 0.1 µg/mL
NC[C@H]1O[C@H](O[C@H]2[C@H](O)[C@@H](O[C@H]3O[C@H](CO)[C@@H](O)[C@H](N)[C@H]3O)[C@H](N)C[C@@H]2N)[C@H](O)[C@@H](O)[C@@H]1O | MIC |  | >32 µg/mL
NNC(=O)c1ccncc1 | MIC50 | 20 strains | 6.25 µg/mL
CCn1nc(C(=O)O)c(=O)c2cc3c(cc21)OCO3 | MIC |  | 486.3 µg/mL
CO[C@H]1/C=C/O[C@@]2(C)Oc3c(C)c(O)c4c(O)c(c(/C=N/N5CCN(C)CC5)c(O)c4c3C2=O)NC(=O)/C(C)=C\C=C\[C@H](C)[C@H](O)[C@@H](C)[C@@H](O)[C@@H](C)[C@H](OC(C)=O)[C@@H]1C | MIC90 | 20 strains | 6.25 µg/mL
CO[C@H]1/C=C/O[C@@]2(C)Oc3c(C)c(O)c4c(O)c(c5c(c4c3C2=O)NC2(CCN(CC(C)C)CC2)N=5)=NC(=O)/C(C)=C\C=C\[C@H](C)[C@H](O)[C@@H](C)[C@@H](O)[C@@H](C)[C@H](OC(C)=O)[C@@H]1C | MIC90 | 58 isolates | 0.8 µg/mL
NC[C@H]1O[C@H](O[C@H]2[C@H](O)[C@@H](O[C@H]3O[C@H](CO)[C@@H](O)[C@H](N)[C@H]3O)[C@H](N)C[C@@H]2N)[C@H](O)[C@@H](O)[C@@H]1O | MIC | N-897 (HIV-) | 2 µg/mL
COc1c(N2C[C@@H]3CCCN[C@@H]3C2)c(F)cc2c(=O)c(C(=O)O)cn(C3CC3)c12 | MIC |  | 0.7 µg/mL
CO[C@H]1/C=C/O[C@@]2(C)Oc3c(C)c(O)c4c(=O)c(c5oc6cc(N7CCN(CC(C)C)CC7)cc(=O)c6nc5c4c3=C2O)NC(=O)/C(C)=C\C=C\[C@H](C)[C@H](O)[C@@H](C)[C@@H](O)[C@@H](C)[C@H](OC(C)=O)[C@@H]1C | MIC50 | 31 strains | 0.05 µg/mL
CC1COc2c(C3(N)CC3)c(F)cc3c(=O)c(C(=O)O)cn1c23 | MIC90 | 16 isolates | >100 µg/mL
NCC[C@H](O)C(=O)N[C@@H]1C[C@H](N)[C@@H](O[C@H]2O[C@H](CN)[C@@H](O)[C@H](O)[C@H]2O)[C@H](O)[C@H]1O[C@H]1O[C@H](CO)[C@@H](O)[C@H](N)[C@H]1O | MBC |  | 8 µg/mL
CC[C@H]1OC(=O)[C@H](C)[C@@H](O[C@H]2C[C@@](C)(OC)[C@@H](O)[C@H](C)O2)[C@H](C)[C@@H](O[C@@H]2O[C@H](C)C[C@H](N(C)C)[C@H]2O)[C@](C)(OC)C[C@@H](C)C(=O)[C@H](C)[C@@H](O)[C@]1(C)O | MIC | ATCC 13950 | 2 µg/mL
CC1CN(c2cc3c(cc2F)c(=O)c(C(=O)O)cn3-c2ccc(F)cc2F)CCN1 | MIC |  | 1 µg/mL
CC[C@H]1OC(=O)[C@H](C)[C@@H](O[C@H]2C[C@@](C)(OC)[C@@H](O)[C@H](C)O2)[C@H](C)[C@@H](O[C@@H]2O[C@H](C)C[C@H](N(C)C)[C@H]2O)[C@](C)(OC)C[C@@H](C)C(=O)[C@H](C)[C@@H](O)[C@]1(C)O | MBC |  | 16 µg/mL
CCn1cc(C(=O)O)c(=O)c2cc(F)c(N3CCNCC3)nc21 | MIC50 | 16 isolates | 100 µg/mL
CC1COc2c(N3CCN(C)CC3)c(F)cc3c(=O)c(C(=O)O)cn1c23 | MIC90 | 95 isolates | 8 µg/mL
N[C@@H]1CN(c2c(F)cc3c(=O)c(C(=O)O)cn([C@@H]4C[C@@H]4F)c3c2Cl)CC12CC2 | MIC90 | 16 isolates | 25 µg/mL
CO[C@H]1/C=C/O[C@@]2(C)Oc3c(C)c(O)c4c(O)c(c5c(c4c3C2=O)NC2(CCN(CC(C)C)CC2)N=5)=NC(=O)/C(C)=C\C=C\[C@H](C)[C@H](O)[C@@H](C)[C@@H](O)[C@@H](C)[C@H](O)[C@@H]1C | MIC | CDC1 | 0.075 µg/mL
CC[C@H]1OC(=O)[C@H](C)[C@@H](O[C@H]2C[C@@](C)(OC)[C@@H](O)[C@H](C)O2)[C@H](C)[C@@H](O[C@@H]2O[C@H](C)C[C@H](N(C)C)[C@H]2O)[C@](C)(OC)C[C@@H](C)C(=O)[C@H](C)[C@@H](O)[C@]1(C)O | MIC | N-260 | 4 µg/mL
CCn1cc(C(=O)O)c(=O)c2cc(F)c(N3CCNC(C)C3)c(F)c21 | MIC |  | 4.9 µg/mL
CN[C@@H]1[C@H](O[C@H]2[C@H](O[C@H]3[C@H](O)[C@@H](O)[C@H](N=C(N)N)[C@@H](O)[C@@H]3N=C(N)N)O[C@@H](C)[C@]2(O)C=O)O[C@@H](CO)[C@H](O)[C@H]1O | MBC |  | 16 µg/mL
CO[C@H]1/C=C/O[C@@]2(C)Oc3c(C)c(O)c4c(=O)c(c5oc6cc(N7CCN(CC(C)C)CC7)cc(=O)c6nc5c4c3=C2O)NC(=O)/C(C)=C\C=C\[C@H](C)[C@H](O)[C@@H](C)[C@@H](O)[C@@H](C)[C@H](OC(C)=O)[C@@H]1C | MIC50 | 20 strains | ≤0.05 µg/mL
Cc1c(F)c(N2CCNC(C)C2)cc2c1c(=O)c(C(=O)O)cn2C1CC1 | MIC |  | 5.4 µg/mL

A second listing of 2 rows from above:

structure	measure	strain or isolate	value
CC[C@H]1OC(=O)[C@H](C)[C@@H](O[C@H]2C[C@@](C)(OC)[C@@H](O)[C@H](C)O2)[C@H](C)[C@@H](O[C@@H]2O[C@H](C)C[C@H](N(C)C)[C@H]2O)[C@](C)(OC)C[C@@H](C)C(=O)[C@H](C)[C@@H](O)[C@]1(C)O	MBC		16 µg/mL
CC[C@H]1OC(=O)[C@H](C)[C@@H](O[C@H]2C[C@@](C)(OC)[C@@H](O)[C@H](C)O2)[C@H](C)[C@@H](O[C@@H]2O[C@H](C)C[C@H](N(C)C)[C@H]2O)[C@](C)(O)C[C@@H](C)C(=O)[C@H](C)[C@@H](O)[C@]1(C)O	MIC	ATCC 13950	64 µg/mL

Lines come from different laboratories, so protocols vary. An empty or dashed field is not shown.